Data reported in patent US8546386B2, “Corrosion and microbial control in hydrocarbonaceous compositions” (Dow Global Technologies LLC, priority 2008, dated 2013).
Some compounds may have been tested in ways that are not shown here.

What was measured:
[1] = system: Yarrowia tropicalis ATCC#48138; experiment: Microbial testing in biodiesel fuel, plate count; format: cell-based; conditions: additive 1500 ppm, no biocide, Week 4
[2] = system: Pseudomonas aeruginosa ATCC#33988; experiment: Microbial testing in biodiesel fuel, plate count; format: cell-based; conditions: additive 500 ppm, no biocide, Week 3

## OCCN(CCO)CCO
[1]
  Yeast (Y. tropcalis) count: 1.30E+02 Yeast/ml
[2]
  Bacteria (Ps. aeruginosa) count: 2.40E+06 Bact/ml
